From patent publication US6599892B2, “7-alkylidene cephalosporanic acid derivatives and methods of using the same” (Research Corporation Technologies, Inc., priority 1994, dated 2003)

Amino acid sequences for entries named in this document (tags omitted). Residues count along the entry.
UniProt P62593, 24-286 Q37K limits assumed: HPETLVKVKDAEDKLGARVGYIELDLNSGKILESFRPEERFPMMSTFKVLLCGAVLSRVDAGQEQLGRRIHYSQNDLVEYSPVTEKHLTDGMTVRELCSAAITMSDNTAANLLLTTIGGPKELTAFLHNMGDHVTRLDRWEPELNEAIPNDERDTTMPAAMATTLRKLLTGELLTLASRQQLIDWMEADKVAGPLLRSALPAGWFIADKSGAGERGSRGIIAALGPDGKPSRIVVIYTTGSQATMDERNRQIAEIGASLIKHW
UniProt P05364, whole entry: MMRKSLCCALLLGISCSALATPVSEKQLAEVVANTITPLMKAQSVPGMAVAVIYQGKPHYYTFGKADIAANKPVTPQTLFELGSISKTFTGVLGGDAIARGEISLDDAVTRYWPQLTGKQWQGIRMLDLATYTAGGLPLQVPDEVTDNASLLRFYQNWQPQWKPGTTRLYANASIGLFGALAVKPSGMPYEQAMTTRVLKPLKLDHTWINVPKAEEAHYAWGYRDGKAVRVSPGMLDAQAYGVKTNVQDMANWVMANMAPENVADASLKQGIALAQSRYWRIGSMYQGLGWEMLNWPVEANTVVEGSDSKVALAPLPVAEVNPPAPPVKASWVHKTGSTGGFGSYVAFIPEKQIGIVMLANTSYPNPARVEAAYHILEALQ
UniProt P05364, 21-381 limits assumed: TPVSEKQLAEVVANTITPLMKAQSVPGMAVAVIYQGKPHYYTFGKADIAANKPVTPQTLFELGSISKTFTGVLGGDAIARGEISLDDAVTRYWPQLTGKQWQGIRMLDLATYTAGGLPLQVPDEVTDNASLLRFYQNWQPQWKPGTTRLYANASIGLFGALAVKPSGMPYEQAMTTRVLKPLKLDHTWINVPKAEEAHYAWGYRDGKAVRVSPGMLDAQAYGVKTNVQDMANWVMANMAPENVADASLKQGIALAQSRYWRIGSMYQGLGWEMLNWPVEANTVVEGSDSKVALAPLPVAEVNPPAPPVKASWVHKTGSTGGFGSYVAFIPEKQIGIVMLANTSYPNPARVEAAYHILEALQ

How the values were obtained:
[1] = molecular target: E. coli. W3310 β-lactamase (TEM2) (Escherichia coli, UniProt P62593, Q37K); conditions: tested form: Na salt
[2] = molecular target: Class C β-lactamase of Enterobacter cloacae P99 (Enterobacter cloacae, UniProt P05364); conditions: read-out: IC50 (nM) E. cloacea P99; 10 minute incubation of enzyme and inhibitor; nitrocefin substrate; tested form: Na salt
[3] = molecular target: E. cloacae SC 12368 β-lactamase (Enterobacter cloacae, UniProt P05364); conditions: read-out: IC50 (nM) E. cloacea SC12368; 10 minute incubation of enzyme and inhibitor; nitrocefin substrate; tested form: Na salt

Compound: COC(=O)/C=C1/C(=O)N2C(C(=O)O)=C(COC(C)=O)CS(=O)(=O)C12 (stereo not drawn)
- IC50 [1]: 0.008 µM
- IC50 [2]: > 20000 nM
- IC50 [3]: > 20000 nM
